In article PMC10837205 (2024):

Target: biotinylated soluble human LDLR (sohLDLR) (human) (UniProt P01130)
Assay: BLI

## monomeric Gc ectodomain of CCHFV YL16070 strain (domain or fragment)
  Kd: 32.6 nM
